Results of unrelated studies side by side (data: NIAID ChemDB).

All rows: whole-cell or culture tests; agent: Mycobacterium tuberculosis

Rows are shuffled and stem from different studies.

smiles,cell line,endpoint,setting,mutations,method,strain,dose,value
Cc1ccc(N2C(c3ccccc3)=CC(=C3C=CC(=O)C=C3)C=C2c2ccccc2)cc1,VERO,MIC,-,-,-,H37Rv,-,12.5 µg/mL
CCCCC(CC)CN1CN(CC(CC)CCCC)CC(C)(NCCNCCc2ccc(O)c(OC)c2)C1,-,MIC,-,-,-,-,-,12.5 µM
CN(C)c1ccc(-c2ccc3cc(Cl)ccc3n2)cc1,-,MIC,-,-,-,H37Rv,-,>100 µg/mL
NNC(=O)C(=O)N/N=C(\CC1(O)C(=O)Nc2ccccc21)c1ccccc1O,-,inhibition,-,-,BACTEC,H37Rv,12.5 µg/mL,0%
CO[C@H]1/C=C/O[C@@]2(C)Oc3c(C)c(O)c4c(=O)c(c5oc6cc(N7CCN(C(C)C)CC7)cc(=O)c6nc5c4c3=C2O)NC(=O)/C(C)=C\C=C\[C@H](C)[C@H](O)[C@@H](C)[C@@H](O)[C@@H](C)[C@H](OC(C)=O)[C@@H]1C,-,MIC,-,-,-,33 (rifampin-resistant),-,0.1 µg/mL
CC1OC(n2ccc(NC(=O)c3ccc(NC(=O)C(C)(N)CO)cc3)nc2=O)CCC1OC1OC(C)C(N(C)C)C(O)C1O,-,MIC,-,-,-,EMB-R,-,0.8 µg/mL
O=C(/C(=C\c1ccccc1)N1CCCCC1)c1ccccc1,-,MIC,-,-,-,H37Rv,-,>100 µg/mL
CO[C@H]1/C=C/O[C@@]2(C)Oc3c(C)c(O)c4c(O)c(c5c(c4c3C2=O)NC2(CCN(CC(C)C)CC2)N=5)=NC(=O)/C(C)=C\C=C\[C@H](C)[C@H](O)[C@@H](C)[C@@H](O)[C@@H](C)[C@H](OC(C)=O)[C@@H]1C,-,MIC,-,-,-,Strain 64,-,0.03 µg/mL
NCC[C@H](O)C(=O)N[C@@H]1C[C@H](N)[C@@H](O[C@H]2O[C@H](CN)[C@@H](O)[C@H](O)[C@H]2O)[C@H](O)[C@H]1O[C@H]1O[C@H](CO)[C@@H](O)[C@H](N)[C@H]1O,-,MIC,-,-,broth dilution / resazurin,MDR11,-,1 µg/mL
Nc1nccc(=O)[nH]1,-,MIC,-,-,-,H37Rv,-,>100 µg/mL
CO[C@H]1/C=C/O[C@@]2(C)Oc3c(C)c(O)c4c(O)c(c(/C=N/N5CCN(C/C=C/c6ccccc6)CC5)c(O)c4c3C2=O)NC(=O)/C(C)=C\C=C\[C@H](C)[C@H](O)[C@@H](C)[C@@H](O)[C@@H](C)[C@H](OC(C)=O)[C@@H]1C,-,MBC,-,-,-,2749 (rifampin-sensitive),-,0.2 µg/mL
Nc1ccc(S(=O)(=O)Nc2ccc(S(=O)(=O)[O-])cc2)cc1.[Na+],-,MIC,-,-,-,H37Rv,-,>100 µg/mL
O=C(c1ccccc1)N1C(=S)N(c2ccccn2)C(=Nc2ccccc2)C1=Nc1ccccc1,-,MIC bound,-,-,BACTEC,H37Rv,-,>12.5 µg/mL
CCOC(=O)Nc1cc(NCc2ccc(S(=O)(=O)N(CC)CC)cc2)c(N)c(N)n1,-,EC50,-,-,-,H37Rv,-,>12.5 µg/mL
C[C@@H]1[C@@H](NCCNCCc2ccc(Cl)cc2Cl)C[C@H]2C[C@@H]1C2(C)C,-,MIC,-,-,-,-,-,50 µM
CC1COc2c(N3CCN(C)CC3)c(F)cc3c(=O)c(C(=O)O)cn1c23,-,MBC90,-,-,-,DRUG-SUS,-,1 µg/mL
Cc1ccc2oc(=O)n(-c3ccccc3)c(=S)c2c1,-,MIC,21 d,-,-,My 331/88,-,2 µM
CCCCCCCCN1CSC(=S)N(c2ccc3[nH]c(=S)sc3c2)C1,-,inhibition,-,-,BACTEC,H37Rv,12.5 µg/mL,1%
COc1ccc(CSc2ccncc2)cc1,-,MIC90,-,-,-,H37Rv,-,>6.25 µg/mL
COc1cc(NC(c2ccccc2)C(C(C)=O)N2CCOCC2)c2ncccc2c1,-,MIC,-,-,-,H37Rv,-,>100 µg/mL
Cc1cc2c(cc1N)C(C)C1(CCC(=O)N2Cc2ccccc2)OCCO1,-,MIC,-,-,BACTEC,H37Rv,-,≥12.5 µg/mL
C=CCNc1nc(NCC=C)nc(OCCCC)n1,-,MIC,-,-,-,H37Rv,-,100 µg/mL
C=C(Br)CN(CC(=C)Br)NC(C)=O,-,inhibition,-,-,BACTEC,H37Rv,12.5 µg/mL,13%
NC(=O)c1cnccn1,-,MIC,-,-,-,Isolate 11243 monodrug-resistant,-,>300 µg/mL
CC(C)CCC[C@@H](C)[C@H]1CC[C@H]2[C@]3(C)CC[C@H]4C[C@@H](CCC=C(c5cc(Cl)c(O)c(C(=O)O)c5)c5cc(Cl)c(O)c(C(=O)O)c5)CC[C@]4(C)[C@H]3CC[C@@]21C,-,inhibition,-,-,BACTEC,H37Rv,12.5 µg/mL,6%
NC1CCN(c2c(F)cc3c(=O)c(C(=O)O)cn(C4CC4)c3c2Cl)C1,-,MIC,-,-,-,ATCC 35823,-,0.125 µg/mL
C/C=C(/COC(C)=O)C(=O)OC1C=C(C=O)C(C)(C)C=C1C,-,inhibition,-,-,BACTEC,H37Rv,12.5 µg/mL,21%
O=P(Nc1ccccc1)(Nc1ccccc1)Nc1ccccc1,-,MIC,-,-,-,H37Rv,-,100 µg/mL
COc1ccccc1CCNCCNCCNc1ccccc1,-,MIC,-,-,-,-,-,50 µM
CCOC(=O)Nc1cc2c([nH]c(=S)n2/N=C/c2ccccc2)c(N)n1,-,EC50,-,-,-,H37Rv,-,>12.5 µg/mL
Nc1ccc(S(=O)(=O)C(F)(F)F)cc1,-,MIC,-,-,-,H37Rv,-,>100 µg/mL
Clc1ccc(C2(Cn3ccnc3)OCC(COc3ccc(-c4ccccc4)cc3)O2)c(Cl)c1,-,MIC bound,-,-,resazurin,H37Rv,-,>6.25 µg/mL
COc1ccc(CCNCCNC(C)(C)CO)cc1,-,MIC,-,-,-,-,-,50 µM
COc1ccc(Sc2ccncc2)cc1OC,-,MIC,-,-,-,H37Ra,-,>12.8 µg/mL
CN(C)CCC(=O)c1ccccc1,-,MIC,-,-,-,H37Rv,-,100 µg/mL
CCCCCCCCCCCCCCCCCCNCCN[C@H]1C[C@H]2CC[C@]1(C)C2(C)C,-,MIC,-,-,-,-,-,25 µM
S=c1oc2ccc(Br)cc2c(=S)n1-c1ccc(Cl)cc1,-,MIC,21 d,-,-,My 331/88,-,2 µM
CCOC(=O)C1CSC(C)C1=O,-,MIC,-,-,-,H37Rv,-,25 µg/mL
CC(C)c1ccc2c(c1)CC[C@H]1[C@](C)(CNCCNCCCO)CCC[C@]21C,-,MIC,-,-,-,-,-,25 µM
C[C@H]1COc2c(N3CCN(C)CC3)c(F)cc3c(=O)c(C(=O)O)cn1c23,-,MIC,-,-,-,H37Rv,-,0.5 µg/mL
O=c1c2c3c(sc2nc2n1NC=NN2)CCCC3,-,inhibition,-,-,resazurin,H37Rv,6.25 µg/mL,24%
Fc1ccc(CNCCN(Cc2ccccc2)Cc2ccccc2)cc1,-,MIC,-,-,-,-,-,25 µM
O=C(O)CCC(CCC(=O)O)C(=O)O,-,MIC,-,-,-,H37Rv,-,>100 µg/mL
FC(F)(F)c1ccc(CNCCNC23CC4CC(CC(C4)C2)C3)cc1,-,MIC,-,-,-,-,-,>50 µM
CC[C@H]1OC(=O)[C@H](C)[C@@H](O[C@H]2C[C@@](C)(OC)[C@@H](O)[C@H](C)O2)[C@H](C)[C@@H](O[C@@H]2O[C@H](C)C[C@H](N(C)C)[C@H]2O)[C@](C)(O)C[C@@H](C)C(=O)[C@H](C)[C@@H](O)[C@]1(C)O,-,MBC,-,-,-,ATCC35838,-,>8 µg/mL
Fc1ccc(CCNCCNCCC2=CCCCC2)cc1,-,MIC,-,-,-,-,-,12.5 µM
COc1ccc2nc3cc(Cl)ccc3c(NC(C)(C)CO)c2c1,-,MIC,-,-,-,H37Rv,-,100 µg/mL
CC(C)c1ccc2c(c1)CC[C@H]1[C@](C)(CNCCNCCCCO)CCC[C@]21C,-,MIC,-,-,-,-,-,50 µM
CO[C@H]1/C=C/O[C@@]2(C)Oc3c(C)c(O)c4c(O)c(c(/C=N/N5CCN(C6CCCC6)CC5)c(O)c4c3C2=O)NC(=O)/C(C)=C\C=C\[C@H](C)[C@H](O)[C@@H](C)[C@@H](O)[C@@H](C)[C@H](OC(C)=O)[C@@H]1C,-,MIC,-,-,-,Isolate 900201 drug-susceptible,-,0.063 µg/mL
Cc1ccc(S(=O)(=O)NNC(=O)c2ccccc2NCCO)cc1,-,MIC,-,-,BACTEC,H37Rv,-,≥12.5 µg/mL
NCC[C@H](O)C(=O)N[C@@H]1C[C@H](N)[C@@H](O[C@H]2O[C@H](CN)[C@@H](O)[C@H](O)[C@H]2O)[C@H](O)[C@H]1O[C@H]1O[C@H](CO)[C@@H](O)[C@H](N)[C@H]1O,-,MIC,-,-,-,1R,-,2.5 µg/mL
Nc1c(O)cc(S(=O)(=O)O)c2ccccc12,-,MIC,-,-,-,H37Rv,-,50 µg/mL
CC(=O)NS(=O)(=O)c1ccc(N=NC2C(=O)N(C(=O)c3cccnc3)N=C2C)cc1,-,MIC bound,-,-,BACTEC,H37Rv,-,>12.8 µg/mL
O=C(O)c1cccc2c1C(=O)c1ccccc1C2=O,-,MIC,-,-,-,H37Rv,-,50 µg/mL
CCOC(=O)C1C2(C)NC(=O)C1(Cc1ccccc1)c1cc(C)c(C)cc1O2,-,MIC bound,-,-,BACTEC,H37Rv,-,>12.5 µg/mL
Oc1cc(CN2CCOCC2)cc(CN2CCOCC2)c1O,-,MIC,-,-,-,H37Rv,-,>100 µg/mL
C[C@H]1COc2c(N3CCN(C)CC3)c(F)cc3c(=O)c(C(=O)O)cn1c23,-,MIC,-,SM-resistant,resazurin,Clinical isolate BRF 7,-,0.25 µg/mL
CCOC(=O)Nc1cc(N)c([N+](=O)[O-])c(N[C@H](C)/C(=C\O)c2ccc(O)cc2)n1,-,EC50,-,-,-,H37Rv,-,>12.5 µg/mL
CC[C@H]1OC(=O)[C@H](C)[C@@H](O[C@H]2C[C@@](C)(OC)[C@@H](O)[C@H](C)O2)[C@H](C)[C@@H](O[C@@H]2O[C@H](C)C[C@H](N(C)C)[C@H]2O)[C@](C)(OC)C[C@@H](C)C(=O)[C@H](C)[C@@H](O)[C@]1(C)O,-,MIC50,-,-,-,DRUG-SUS,-,>8 µg/mL
CCCCC(CC)CN1CN(CC(CC)CCCC)CC(C)(NCCNCc2cccc(OC)c2OC)C1,-,MIC,-,-,-,-,-,25 µM
C[C@@H]1CN(c2c(F)c(N)c3c(=O)c(C(=O)O)cn(C4CC4)c3c2F)C[C@H](C)N1,-,MBC,-,-,-,ATCC 35828,-,0.06 µg/mL
O=C1CC(SC(=S)N2CCCCC2)C(=O)N1c1ccccc1,-,MIC,-,-,-,PZA-R,-,6.4 µg/mL
Fc1ccc(-n2c(=S)oc3ccc(Br)cc3c2=S)cc1,-,MIC,21 d,-,-,My 331/88,-,2 µM
COc1ccc(Sc2nc(Cl)nc3nc[nH]c23)cc1,-,inhibition,-,-,-,H37Rv,6.25 µg/mL,8%
COc1ccc(OC)c(CCNCCN[C@H]2C[C@H]3CC[C@]2(C)C3(C)C)c1,-,MIC,-,-,-,-,-,25 µM
CCOC(=O)Nc1cc(NC(c2ccccc2)c2ccccc2)c2nc(-c3ccc(Cl)cc3)cnc2n1,-,EC50,-,-,-,H37Rv,-,>12.5 µg/mL
CC(C)C(=O)c1ccc(Cl)cc1,-,MIC,-,-,-,H37Rv,-,>100 µg/mL
Cc1cccc(C)c1Sc1nc(Cl)nc2nc[nH]c12,-,MIC90,-,-,-,H37Rv,-,>6.25 µg/mL
Nc1nc(N)c2c(n1)Nc1ccc(Cl)nc1S2,-,MIC bound,-,-,BACTEC,H37Rv,-,>12.5 µg/mL
CCCCCOc1ccc(C(=O)O)cc1[N+](=O)[O-],-,MIC,-,-,-,H37Rv,-,>100 µg/mL
COc1ccc(OC)c(Sc2ncnc3nc[nH]c23)c1,-,MIC90,-,-,-,H37Rv,-,>6.25 µg/mL
NNC(=O)c1ccccc1SSc1ccccc1C(=O)NN,-,MIC,-,-,-,ETA-R,-,>12.5 µg/mL
COc1ccccc1Sc1nc(Cl)nc2nc[nH]c12,-,inhibition,-,-,-,H37Rv,6.25 µg/mL,3%
CN(C)CCNc1cccc2sc3ccc(O)cc3c(=O)c12,-,MIC bound,-,-,BACTEC,H37Rv,-,≤12.5 µg/mL
O=C(SSC(=O)c1ccc(Br)cc1)c1ccc(Br)cc1,-,MIC,-,-,-,H37Rv,-,>100 µg/mL
O=c1oc2ccc(F)cc2c(=S)n1-c1ccc(Cl)cc1,-,MIC,21 d,-,-,My 331/88,-,1 µM
CCC[N+]1=C/c2ccccc2OC(=O)/C=C\1[O-],-,MIC bound,-,-,BACTEC,H37Rv,-,>12.5 µg/mL
CC(C)(C)c1ccc(OCC2CO2)cc1,-,MIC,-,-,-,H37Rv,-,>100 µg/mL
CC(=O)C(NC(=O)C(C)C(O)C(C)NC(=O)C(NC(=O)c1nc(C(CC(N)=O)NCC(N)C(N)=O)nc(N)c1C)C(OC1OC(CO)C(O)C(O)C1(C)OC1OC(CO)C(O)C(O)(C(N)=O)C1O)c1cnc[nH]1)C(=O)NCCC1=NC(c2nc(C(N)=O)cs2)CS1,-,MIC,-,-,-,RMP-R,-,0.013 µg/mL
CCOC(=O)Nc1cc2c(c(N)n1)N=C(c1ccccc1)CCN2,VERO,EC50,-,-,-,H37Rv,-,<12.5 µg/mL
OCCN(CCO)c1cccc(Cl)c1,-,MIC,-,-,-,H37Rv,-,>100 µg/mL

A second listing of 7 rows from above:

smiles	cell line	endpoint	setting	mutations	method	strain	dose	value
O=c1oc2ccc(F)cc2c(=S)n1-c1ccc(Cl)cc1	-	MIC	21 d	-	-	My 331/88	-	1 µM
O=C(O)c1cccc2c1C(=O)c1ccccc1C2=O	-	MIC	-	-	-	H37Rv	-	50 µg/mL
Cc1ccc(S(=O)(=O)NNC(=O)c2ccccc2NCCO)cc1	-	MIC	-	-	BACTEC	H37Rv	-	≥12.5 µg/mL
CCOC(=O)Nc1cc2c([nH]c(=S)n2/N=C/c2ccccc2)c(N)n1	-	EC50	-	-	-	H37Rv	-	>12.5 µg/mL
CC(C)CCC[C@@H](C)[C@H]1CC[C@H]2[C@]3(C)CC[C@H]4C[C@@H](CCC=C(c5cc(Cl)c(O)c(C(=O)O)c5)c5cc(Cl)c(O)c(C(=O)O)c5)CC[C@]4(C)[C@H]3CC[C@@]21C	-	inhibition	-	-	BACTEC	H37Rv	12.5 µg/mL	6%
CCOC(=O)Nc1cc(NCc2ccc(S(=O)(=O)N(CC)CC)cc2)c(N)c(N)n1	-	EC50	-	-	-	H37Rv	-	>12.5 µg/mL
C=CCNc1nc(NCC=C)nc(OCCCC)n1	-	MIC	-	-	-	H37Rv	-	100 µg/mL

ECn: concentration that inhibits the pathogen or its effect by n%. Inhibition is in % at the dose shown (toxicity tests: loss of growth or viability). A number after MIC or MFC names an inhibition level or a share of isolates. Blank or dashed fields: not listed here. MIC bound comes from a single tested concentration.